Test [1] deals with recombinant N-type (Cav2.2) VGCC α1B-b/α2δ1/β2a expressed in Xenopus oocytes (rat; rabbit), Q02294. In words: cell-based or functional assay.
In test [2] the target is recombinant N-type (Cav2.2) VGCC α1B-b/α2δ1/β3 expressed in Xenopus oocytes (rat; rabbit), Q02294. Nature of the test: cell-based or functional assay.

B1: [R10K]CVIE (peptide)
peptide: CKGKGASCRKTSYDCCTGSCRSLRC
modifications: not checked
In the case of B1, the IC50 of block of IBa, Xenopus oocytes came to 3.6 nM in test [1] and 3.5 nM in test [2].

B2: [R10K]CVIF (peptide)
peptide: CKGKGASCRKTSYDCCTGSCRSGRC
modifications: not checked
In the case of B2, the IC50 of block of IBa, Xenopus oocytes in test [2] came out at 7.6 nM.

The values above are taken from patent US20120329717A1, “Omega conotoxin peptides” (published 2012).
